According to publication PMC8002998:
A negative result means that nothing was seen under these conditions. At least one verdict was read from the data and is not stated in words by the source. Tags and fusion partners may be left off the protein sequences shown.

Biological target: T1, OhrR-C (chromosomal OhrR) (Acinetobacter baumannii ATCC 19606) (UniProt A0A077GRS4)
T1 sequence (looked up, limits assumed): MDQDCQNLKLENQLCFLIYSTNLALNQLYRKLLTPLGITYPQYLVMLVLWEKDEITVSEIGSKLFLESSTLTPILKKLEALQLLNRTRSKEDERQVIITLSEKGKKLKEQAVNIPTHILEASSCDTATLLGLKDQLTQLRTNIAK
Experiment: EMSA
Settings: 600 nM OhrR-C, 50 nM DNA, 20 mM Tris-HCl pH 7.5, 100 mM MgCl2, 150 mM KCl, 50 mM EDTA, 12.5% glycerol, 250 uM DTT, 830 ng/mL poly(dI-dC), 250 ng/mL BSA, room temperature, recombinant protein, protein details: His tag implied (pQE80L BamHI/KpnI, Ni-affinity)

Sequence	binding result
ACCAATTTTTTTACAAAATTGACTTGTTAAAATAATTAAGTCGTG (double strand) [Pohr-1]	no binding
TACGATATATTTGCATTCAATTTAATTTAGGAATAAAAAG (double strand) [Pohr-2]	no binding
